Compound potency records, mixed from different reports. Data source: NIAID ChemDB in PubChem.

Common to all: whole-cell or culture tests; organism: Hepatitis C virus; method: luciferase; read-out: EC50

a–b is a range or a potency band. Conditions beyond the fields shown may differ between rows. Blank or dashed fields: not listed here. ECn: concentration that inhibits the pathogen or its effect by n%.

structure	setting	cells	changes	strain or isolate	result
Nc1nc2c(ncn2[C@@H]2O[C@H](CO)C[C@H]2O)c(=O)[nH]1	-	-	-	-	>150 µM
NC1=NC(c2ccc(Cl)cc2)N(c2ccc(S(N)(=O)=O)cc2)C(N)=N1	-	Huh7	-	JFH-1	>10 µM
C[C@@]1(O)[C@H](O)[C@@H](CO)O[C@H]1n1cnc2c(N)ncnc21	-	Huh7-Lunet	-	GT 1a-H77	0.625 µM
CC(C)OC(=O)[C@H](C)N[P@](=O)(OCC1O[C@@H](n2ccc(=O)[nH]c2=O)[C@](C)(F)[C@@H]1O)Oc1ccccc1	-	1C	-	GT1b	0.04 µM
O=c1ccn([C@@H]2O[C@H](CO)C[C@H]2O)c(=O)[nH]1	-	-	-	-	>150 µM
CC(=O)CC[C@H]1C(=O)N[C@@H](C(C)C)C(=O)N[C@@H](Cc2cccc(O)c2)C(=O)N2CCCC(N2)C(=O)O[C@H](/C(C)=C/C=C/C(=O)N2CCCCO2)C/C=C/C=C/[C@H](O)[C@H](C)[C@H]1O	-	Huh7	-	1b Con1	0.06 µM
N=C(N)n1c(N)nc2ccccc2c1=O	-	Huh7	-	JFH-1	>10 µM
CC1(O)C(O)C(CO)OC1n1cnc2c(N)ncnc21	-	1C	P89L K583E	GT3a	0.025 µM
C[C@@]1(O)[C@H](O)[C@@H](CO)O[C@H]1c1cnn2c(N)ncnc12	-	Huh7	-	GT-1b Con1	>100 µM
Fc1ccccc1-c1nc2ccn(Cc3ccc(-c4ccc(C(F)(F)F)cc4C(F)(F)F)nn3)cc-2n1	-	1C	P89L K583E	GT3a	0.059 µM
C[C@@]1(O)[C@H](O)[C@@H](CO)O[C@H]1n1ccc2c(N)ncnc21	-	Huh7	-	GTab (Con1)	0.2 µM
CC(C)OC(=O)[C@H](C)N[P@](=O)(OC[C@H]1O[C@@](C#N)(c2ccc3c(N)ncnn23)[C@](C)(O)[C@@H]1OC(=O)C(C)C)Oc1ccccc1	-	Huh7 replicon	-	1b Con1	0.46 µM
CCCc1nc(NC(=O)c2ccccc2)nc(NC(=O)c2ccccc2)n1	-	Huh7	-	JFH-1	>10 µM
Cc1cn([C@@H]2C[C@@H](O)[C@H](CO)O2)c(=O)[nH]c1=O	45% human serum	Replicon cells	-	GT1b	>220 µM
COc1ccc2c(O[C@@H]3C[C@H]4C(=O)N[C@]5(C(=O)O)C[C@H]5/C=C\CCCCC[C@H](NC(=O)OC5CCCC5)C(=O)N4C3)cc(-c3csc(NC(C)C)n3)nc2c1	-	Huh 5-2	-	-	>22 µM
CCOc1nc(N)nc2c1ncn2[C@@H]1O[C@H](COP(=S)(N[C@@H](C)C(=O)OCC(C)(C)C)Oc2ccccc2)[C@@H](F)[C@@]1(C)O	-	Huh7	-	-	1–10 µM
CCC[C@H](NC(=O)[C@@H]1[C@H]2CCC[C@H]2CN1C(=O)[C@@H](NC(=O)[C@@H](NC(=O)c1cnccn1)C1CCCCC1)C(C)(C)C)C(=O)C(=O)NC1CC1	-	1C	P89L K583E	GT3a	2.217 µM
CC1CCC(C(=O)N(c2cc(C#CC(C)(C)C)sc2C(=O)O)C2CCC(O)CC2)CC1	-	Huh7-Lunet	-	GT 1a-H77	0.013 µM
CC(=O)Nc1ccc(-c2ccc(Cl)cc2)c(COc2ccc(-c3nc4cc(C(=O)O)ccc4n3C3CCCCC3)cc2)c1	-	Huh7	-	1a	1.624 µM
O=C(O)CC1OCC=C2CN3CCC45c6ccccc6NC4C1C2CC35	-	Huh7	-	JFH-1	>10 µM
CNC(=O)c1c(-c2ccc(F)cc2)oc2cc(N(CCO)S(C)(=O)=O)c(C3CC3)cc12	-	Huh 5-2	-	-	>33 µM
Cc1cn([C@H]2C[C@H](N=[N+]=[N-])[C@@H](CO)O2)c(=O)[nH]c1=O	45% human serum	Replicon cells	-	GT1b	85.7 µM
C[C@@]1(O)[C@H](O)[C@@H](CO)O[C@H]1n1cnc2c(N)ncnc21	-	Huh7 replicon	-	4a ED43	0.16 µM
CCOc1nc(N)nc2c1ncn2[C@@H]1O[C@H](COP(=O)(N[C@@H](C)C(=O)OC2CCCCC2)Oc2ccc(F)c(Cl)c2)[C@@H](F)[C@@]1(C)O	-	Huh7	-	-	<1 µM
C=C[C@@H]1C[C@]1(NC(=O)[C@@H]1C[C@@H](Oc2nccc3ccc(Br)cc23)CN1C(C)=O)C(=O)NS(=O)(=O)C1CC1	-	-	-	1b A156T	>3 µM
CCOc1nc(N)nc2c1ncn2[C@@H]1O[C@H](COP(=O)(N[C@@H](C)C(=O)OCC(C)(C)C)Oc2ccccc2Cl)[C@@H](F)[C@@]1(C)O	-	Huh7	-	-	<1 µM
C[C@@]1(O)[C@H](O)[C@@H](CO)O[C@H]1c1cnc2c(N)ncnn12	-	Huh7	-	GT-1b Con1	1.3 µM
C[C@@]1(O)[C@H](F)[C@@H](CO)O[C@H]1n1cnc2c(=O)[nH]c(N)nc21	-	Huh7	-	-	10–100 µM
CCNC1(C(N)=O)CCNCC1	-	Huh7	-	JFH-1	>10 µM
Fc1ccccc1-c1nc2ccn(Cc3ccc(-c4ccc(C(F)(F)F)cc4C(F)(F)F)nn3)cc-2n1	-	Huh7	-	3a	1.382 µM
NC(=O)c1ncn([C@@H]2O[C@H](CO)[C@@H](O)[C@H]2O)n1	-	Huh 5-2	-	-	>33 µM
CCOc1nc(N)nc2c1ncn2[C@@H]1O[C@H](COP(=O)(N[C@@H](C)C(=O)OC(C)C)Oc2ccccc2)[C@@H](F)[C@@]1(C)O	-	Huh7	-	-	<1 µM
O=C1Nc2ccc(Cl)cc2[C@@](C#CC2CC2)(C(F)(F)F)O1	45% human serum	Replicon cells	-	GT1b	≥172 µM
CCOc1nc(N)nc2c1ncn2[C@@H]1O[C@H](COP(=O)(N[C@@H](C)C(=O)OCC(C)(C)C)Oc2ccccc2)[C@@H](F)[C@@]1(C)O	-	Huh7	-	-	<1 µM
C[C@@]1(O)[C@H](O)[C@@H](CO)O[C@H]1c1ccc2c(=O)[nH]c(N)nn12	-	Huh7	-	GT-1b Con1	>100 µM

A second listing of 2 rows from above:

structure,setting,cells,changes,strain or isolate,result
CC1(O)C(O)C(CO)OC1n1cnc2c(N)ncnc21,-,1C,P89L K583E,GT3a,0.025 µM
Fc1ccccc1-c1nc2ccn(Cc3ccc(-c4ccc(C(F)(F)F)cc4C(F)(F)F)nn3)cc-2n1,-,Huh7,-,3a,1.382 µM